According to patent US20070010489A1 (priority 2002, published 2007):

Experiments:
[1] = target: recombinant HIV-1 protease (Human immunodeficiency virus type 1 group M subtype B, UniProt P04585); assay: HIV-1 Protease Enzyme Assay (Ki); type: biochemical
[2] = test system: wild-type HIV-1 strain IIIB; assay: Anti-HIV-1 Cell Culture Assay (EC50); type: cell-based

SMILES	Ki ([1]; Enzymatic assay)	Ki [1]	EC50 [2]
O=C1N(Cc2ccc3[nH]ncc3c2)[C@H](Cc2ccc(O)cc2)[C@H](O)[C@@H](O)[C@@H](Cc2ccc(O)cc2)N1Cc1ccc2[nH]ncc2c1	0.012 nM		
Cc1c(O)cccc1C(=O)N[C@@H](Cc1ccc(OCP(=O)(OCc2ccccc2)OCc2ccccc2)cc1)[C@H](O)CN(CC(C)C)S(=O)(=O)c1ccc(N)cc1		0.01 to 0.1 nM	50 to 500 nM
CCCCOC(=O)[C@H](C)NP(=O)(COc1ccc(S(=O)(=O)N(CC(C)C)C[C@@H](O)[C@H](Cc2ccccc2)NC(=O)O[C@H]2CO[C@H]3OCC[C@H]32)cc1)N[C@@H](C)C(=O)OCCCC			50 to 500 nM
O=C1N(Cc2ccc3[nH]ncc3c2)[C@H](Cc2ccccc2)[C@H](O)[C@@H](O)[C@@H](Cc2ccccc2)N1Cc1ccc2[nH]ncc2c1	< 0.01 nM		
COc1ccc(S(=O)(=O)N(CC(C)C)C[C@@H](O)[C@H](Cc2cc[n+]([O-])cc2)NC(=O)O[C@H]2CO[C@H]3OCC[C@H]32)cc1		0.01 to 0.1 nM	

Where two headings read alike, the source gives them in different places.
